The test system of series [1] is ComR + XIP (mature ComS peptide). In words: EMSA. Conditions: 4 uM ComR, 8 uM XIP, no Prx; EMSA: ComR 4 uM, XIP 8 uM, Prx as indicated, 30 min RT, then 100 ng FAM-DNA 15 min RT; 5% native PAGE; recombinant protein; protein details: N-terminal His6 (pET-15b); label: 5'-FAM on reverse strand; probe letters rebuilt from the primers and the genome. For orientation: Mobility shift assays separate free from complexed probe on a gel.

Series [2] concerns T1, ComR (Streptococcus mutans UA159).
T1 sequence (looked up): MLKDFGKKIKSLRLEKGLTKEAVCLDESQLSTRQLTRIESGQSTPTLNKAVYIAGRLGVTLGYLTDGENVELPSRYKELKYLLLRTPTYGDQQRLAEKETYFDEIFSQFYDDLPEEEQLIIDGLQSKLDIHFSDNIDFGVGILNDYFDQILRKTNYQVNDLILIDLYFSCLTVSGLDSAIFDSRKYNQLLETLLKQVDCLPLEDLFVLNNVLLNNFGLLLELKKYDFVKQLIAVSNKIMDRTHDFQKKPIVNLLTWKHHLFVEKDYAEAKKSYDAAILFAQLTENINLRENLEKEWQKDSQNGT
In words: EMSA. Conditions: ComR without XIP; EMSA: ComR 4 uM, XIP 8 uM, Prx as indicated, 30 min RT, then 100 ng FAM-DNA 15 min RT; 5% native PAGE; recombinant protein; residues 1-304; protein details: N-terminal His6 (pET-15b); label: 5'-FAM on reverse strand; probe letters rebuilt from the primers and the genome.

Consider two sequences from article PMC6224593.

For some of these results: A negative result means that nothing was seen under these conditions. For some of these results: At least one verdict rests on a figure or table, not on a statement of the authors. For some of these results: Where a protein sequence is shown, tags need not be part of it.

Consider “CCTGTTATTCTCCTTTCTTTTTGATATCATTCATTATAAATGATCCTTCAAAAAAAGAACAGGACATTTATGTCCCGTTCTGAGAATCTTTTTGCCATTCTTTCTCCAAATTTTCTCTTAAATTAATGTTTTCTGTTAACTGGGCAAATAAGATAGCAGCATCATAGCTCTTTTTAGCTTCCGCATAATCTTTTTCAACAAATAAATGATGCTTCCATGTCAGAAGATTAACAATAGGCTTTTTTTGAAAATCATGAGTTCTATCCATGATTTTATTGCTGACAGCAATAAGCTGCTTAACAAAATCATATTTTTTCAATTCTAAGAGGAGTCCAAAATTATTCAATAAAACATTATTTAAAACGAAAAGATCTTCCAATGGAAGGCAGTCTACCTGCTT (double strand) [comS promoter probe (PcomS)]”, for which the binding result was “binds” in series [1] and “no binding” in series [2].
In the case of “TTGAATCGGGTAGCATATAAAGAGAATGGGCTAATGGTTTCTCCTTAAACTATTAGAATGATTGTTTAATAGTGCAGACGGTTTTGAGATTTGTTATATTTAATAAGTTAATGTATCGTCCAAATTGGTTAAGTACATGGAGGTAAAAATATGATTGTATGCGCGGCGATTAGTTTTTGTTTCTTGTGAACTTTGATTTGTTGATATTGTTCTCGAATTGGGCGTGTTCGACATACCCTGCTTTATCTTGAATTTTGATCCTCTTAATTTTCAATCTGTGAATTGAATGTTTCAGGGAATTTGTCCAATTTCAAATAATGAGAACCGTGTGGATCTACTTATCAAAATTTTTTGCGTAAAATAAAGGATCTGCTTAAGTGTTTTATTAGTTTGTAATGCGAGGTGATGTTTTGTTTAAAAAGAAACTGTTTAATCTGTTAGTCAGAGGTTGTAAATAAAACAGCCAGTTAAGATGGGACATTTATGTCCTGTTCTTAAAGTCTTTTTCGTTTTATAATAATTTTATTATAAAAGGAGGTCATCGTAATAG (double strand) [sigX promoter probe (PsigX)]”, the binding result in series [1] is “binds”; in series [2], “no binding”.
